Anti-infective test results gathered from many reports (values: NIAID ChemDB through PubChem).

Common to all: whole-cell or culture tests; organism: Bovine viral diarrhea virus

Blank or dashed fields: not listed here.

O=[N+]([O-])c1ccc2c(c1)c(N=NC(=S)NC1CCCCC1)c(O)n2CN1CCOCC1 ; cell line: MDBK ; read by: cytopathic effect ; measure: EC50 ; value: >17 µg/mL
O=C(NCc1ccccn1)c1ccc2cccnc2n1 ; cell line: WST-1 ; strain or isolate: NADL ; read by: cytopathic effect ; measure: EC50 ; value: >7.6 µM
Nc1nc(=O)n2ccn([C@H]3C[C@H](O)[C@@H](CO)O3)c2n1 ; measure: EC50 ; value: 21 µM
O=[N+]([O-])c1ccc2[nH]c(O)c(N=NC(=S)Nc3ccc(Cl)cc3)c2c1 ; cell line: MDBK ; read by: cytopathic effect ; measure: EC50 ; value: >19 µg/mL
Cc1cccc(Nc2ncnc3c2ncn3[C@@H]2O[C@H](CO)[C@@H](O)[C@@]2(C)O)c1 ; cell line: MDBK ; strain or isolate: NADL ; read by: virus yield ; measure: EC50 ; value: >100 µM
CCCCCCCCc1ccc(CONCC(=O)C(=O)[C@H]2NC(=O)[C@H]3NC(=O)[C@H](NC(=O)[C@@H]4NC(=O)[C@H](CC(N)=O)NC(=O)[C@H](NC(=O)[C@@H](CC(C)C)NC)C(O)c5ccc(c(Cl)c5)Oc5cc4cc(c5O[C@@H]4O[C@H](CO)[C@@H](O)[C@H](O)[C@H]4O[C@H]4C[C@](C)(N[NH2+][O-])[C@@H](O)[C@H](C)O4)Oc4ccc(cc4)[C@H]3O[C@H]3C[C@](C)(N)[C@@H](O)[C@H](C)O3)c3ccc(O)c(c3)-c3c(O)cc(O)cc32)cc1 ; cell line: MDBK ; read by: cytopathic effect ; measure: EC50 ; value: 5.3 µM
O=C(Nc1nc2ccccc2s1)c1ccc2cccnc2n1 ; cell line: WST-1 ; strain or isolate: NADL ; read by: cytopathic effect ; measure: EC50 ; value: >0.65 µM
C[C@@]1(O)[C@H](O)[C@@H](CO)O[C@H]1n1cnc2c(NN)ncnc21 ; cell line: MDBK ; strain or isolate: NADL ; read by: replicon ; measure: EC50 ; value: 60 µM
CC(=O)O[C@H]1C[C@H](n2cc(/C(I)=C\I)c(=O)[nH]c2=O)O[C@@H]1CO ; cell line: MDBK ; strain or isolate: NADL ; read by: cytopathic effect ; measure: EC50 ; value: >100 µM
Nc1ccn([C@@H]2O[C@H](CO)[C@@H](O)[C@H]2F)c(=O)n1 ; cell line: MDBK ; strain or isolate: NADL ; measure: EC90 ; value: >100 µM
C=CCNC(=S)N=Nc1c(O)n(CN2CCCCC2)c2ccc([N+](=O)[O-])cc12 ; cell line: MDBK ; read by: cytopathic effect ; measure: EC50 ; value: >16 µg/mL
Nc1nc(=O)n2ccn([C@@H]3O[C@H](CO)C[C@H]3O)c2n1 ; measure: EC50 ; value: >100 µM
CC(=O)O[C@@H]1C[C@@H](CO)O[C@H]1n1cc(/C(Cl)=C\I)c(=O)[nH]c1=O ; cell line: MDBK ; strain or isolate: NADL ; read by: cytopathic effect ; measure: EC50 ; value: >100 µM
Fc1cccc(-c2nc3ccn(Cc4ccc(F)cc4F)cc-3n2)c1 ; cell line: MDBK ; read by: cytopathic effect ; measure: EC50 ; value: 0.27 µg/mL
CN(C)Nc1ncnc2c1ncn2[C@@H]1O[C@H](CO)[C@@H](O)[C@@]1(C)O ; cell line: MDBK ; strain or isolate: NADL ; read by: replicon ; measure: EC50 ; value: 20 µM
CC(=O)NNc1ncnc2c1ncn2[C@@H]1O[C@H](CO)[C@@H](O)[C@@]1(C)O ; cell line: MDBK ; strain or isolate: NADL ; read by: virus yield ; measure: EC50 ; value: >100 µM
Fc1cccc(F)c1Cn1ccc2nc(-c3ccccc3)nc-2c1 ; cell line: MDBK ; strain or isolate: PE515 ; read by: cytopathic effect ; measure: EC50 ; value: 0.04 µg/mL
CC(=O)N[C@H](C(=O)N[C@@H](CCC(=O)O)C(=O)N[C@@H](CC(C)C)C(=O)N[C@@H](CCCCN)C(=O)N[C@@H](CCC(=O)O)C(=O)NC(CC(C)C)B1OC(C)(C)C(C)(C)O1)C(C)O.O=C(O)C(F)(F)F ; cell line: MDBK ; strain or isolate: NADL ; read by: plaque count ; measure: EC50 ; value: >90 µM
O=c1nc(NO)ccn1[C@@H]1O[C@H](CO)[C@@H](O)[C@H]1O ; cell line: MDBK ; measure: EC50 ; value: 5.4 µM
NC(=O)c1nccn([C@@H]2O[C@H](CO)[C@@H](O)[C@H]2O)c1=O ; cell line: MDBK ; read by: plaque count ; measure: EC50 ; value: 20 µM
Clc1ccc(Cn2ccc3nc(-c4ccccc4)nc-3c2)cc1 ; cell line: MDBK ; strain or isolate: PE515 ; read by: cytopathic effect ; measure: EC50 ; value: 0.086 µg/mL
O=[N+]([O-])c1ccc2[nH]c(O)c(N=NC(=S)Nc3ccc(F)cc3)c2c1 ; cell line: MDBK ; read by: cytopathic effect ; measure: EC50 ; value: >20 µg/mL
C[C@@]1(O)[C@H](O)[C@@H](COP(=O)(O)OP(=O)(O)OP(=O)(O)O)O[C@H]1n1ccc2c(N)ncnc21 ; cell line: MDBK cells ; read by: neutral red ; measure: EC50 ; value: 0.3 µM
Nc1ccn([C@@H]2O[C@H](CO)[C@@H](O)[C@H]2F)c(=O)n1 ; cell line: MDBK ; read by: PCR ; measure: EC90 ; value: >100 µM
Brc1ccc(Cn2ccc3nc(-c4cccc(I)c4)nc-3c2)cc1 ; read by: cytopathic effect ; measure: EC50 ; value: 0.4 µM
c1ccc(CCCn2ccc3nc(-c4ccccc4)nc-3c2)cc1 ; cell line: MDBK ; strain or isolate: PE515 ; read by: cytopathic effect ; measure: EC50 ; value: 0.059 µg/mL
O=c1ccn([C@@H]2O[C@H](CO)[C@@H](O)[C@H]2F)c(=O)[nH]1 ; cell line: MDBK ; read by: replicon ; measure: EC90 ; value: >100 µM
C=CCN1C(=O)CS/C1=N/N=C1\C(=O)Nc2ccc([N+](=O)[O-])cc21 ; cell line: MDBK ; read by: cytopathic effect ; measure: EC50 ; value: >4 µg/mL
N=C(N)c1ncn([C@@H]2O[C@H](CO)[C@@H](O)[C@H]2O)n1 ; measure: EC50 ; value: 1–100 µM
CCCCCCCCCN1C[C@H](O)[C@@H](O)[C@H](O)[C@H]1CO ; cell line: MDBK ; read by: cytopathic effect ; measure: EC50 ; value: 2.5 µM
Nc1nc2c(ncn2[C@@H]2O[C@H](CO)C(O)(C(F)(F)F)[C@H]2O)c(=O)[nH]1 ; measure: EC50 ; value: ≥100 µM
O=C(Nc1nccs1)c1ccc2cccnc2n1 ; cell line: WST-1 ; strain or isolate: NADL ; read by: cytopathic effect ; measure: EC50 ; value: >0.78 µM
O=c1nc(NO)ccn1[C@@H]1O[C@H](CO)[C@@H](O)[C@H]1O ; cell line: MDCK ; read by: virus yield ; measure: EC50 ; value: <2 µM
CC(=O)O[C@@H]1[C@H](OC(C)=O)[C@@H](CO)O[C@H]1n1cc(/C(Cl)=C\I)c(=O)[nH]c1=O ; cell line: MDBK ; strain or isolate: NADL ; read by: cytopathic effect ; measure: EC50 ; value: >100 µM
CC1S/C(=N/N=C2\C(=O)Nc3ccc([N+](=O)[O-])cc32)N(c2ccc(Cl)cc2)C1=O ; cell line: MDBK ; read by: cytopathic effect ; measure: EC50 ; value: 48 µg/mL
NCCCC[C@H](N)C(=O)Nc1cccc(-c2ccc(NC(=O)Nc3nc4ccccc4s3)nc2)c1 ; cell line: MDBK ; strain or isolate: F78I ; read by: plaque count ; measure: EC50 ; value: 8.3 µM
CC(CNc1ncnc2c1ncn2[C@@H]1O[C@H](CO)[C@@H](O)[C@@]1(C)O)c1ccccc1 ; cell line: MDBK ; strain or isolate: NADL ; read by: virus yield ; measure: EC50 ; value: >100 µM
FC(F)(F)c1ccccc1Cn1ccc2nc(-c3ccccc3)nc-2c1 ; cell line: MDBK ; strain or isolate: PE515 ; read by: cytopathic effect ; measure: EC50 ; value: 0.25 µg/mL
Brc1ccc(Cn2ccc3nc(-c4ccccc4)nc-3c2)cc1 ; cell line: MDBK ; strain or isolate: L2565 (TYPE 1) ; read by: ELISA ; measure: EC50 ; value: 0.6 µM
Nc1nc(=O)n2ccn([C@@H]3C[C@@H](O)[C@H](CO)O3)c2n1 ; measure: EC50 ; value: >100 µM

6 of the rows above, restated:

| structure | cell line | strain or isolate | read by | measure | value |
|---|---|---|---|---|---|
| CC(=O)O[C@@H]1C[C@@H](CO)O[C@H]1n1cc(/C(Cl)=C\I)c(=O)[nH]c1=O | MDBK | NADL | cytopathic effect | EC50 | >100 µM |
| Brc1ccc(Cn2ccc3nc(-c4ccccc4)nc-3c2)cc1 | MDBK | L2565 (TYPE 1) | ELISA | EC50 | 0.6 µM |
| C[C@@]1(O)[C@H](O)[C@@H](COP(=O)(O)OP(=O)(O)OP(=O)(O)O)O[C@H]1n1ccc2c(N)ncnc21 | MDBK cells | - | neutral red | EC50 | 0.3 µM |
| C[C@@]1(O)[C@H](O)[C@@H](CO)O[C@H]1n1cnc2c(NN)ncnc21 | MDBK | NADL | replicon | EC50 | 60 µM |
| Fc1cccc(-c2nc3ccn(Cc4ccc(F)cc4F)cc-3n2)c1 | MDBK | - | cytopathic effect | EC50 | 0.27 µg/mL |
| CC(CNc1ncnc2c1ncn2[C@@H]1O[C@H](CO)[C@@H](O)[C@@]1(C)O)c1ccccc1 | MDBK | NADL | virus yield | EC50 | >100 µM |

Conditions beyond the fields shown may differ between rows. a–b is a range or a potency band. ECn is the concentration giving n% inhibition of infection, replication or growth.